Anti-infective test results gathered from many reports (values: NIAID ChemDB through PubChem).

Common to all: whole-cell or culture tests; species: Mycobacterium tuberculosis

MIC bound: limit read from a one-dose screen.

compound,strain or isolate,mutations,cell line,method,setting,measure,dose,value
N/C(COc1cccc(Cl)c1)=N/NC(=O)c1ccncc1,16 isolates,,,,,MIC50,,6.25 µg/mL
CCCCCCCCN1C(=O)C=C(C)C1=O,H37Ra,,,,,MIC,,≤20 µg/mL
C=C1C(=O)[C@@]23[C@H](O)C[C@@H]4C(C)(C)CCC[C@@]4(C)[C@@H]2CC[C@@H]1[C@H]3O,H37Ra,,,resazurin / absorbance,,MIC,,3.125–6.25 µg/mL
O=C(Nc1ccccc1[N+](=O)[O-])/C(=N\Nc1cccc(Cl)c1)c1c(O)c2ccccc2oc1=O,H37Rv,,,BACTEC,,MIC bound,,>12.5 µg/mL
C[C@]1(COc2ccc(N3CCC(COc4ccc5ccccc5c4)CC3)cc2)Cn2cc([N+](=O)[O-])nc2O1,H37Rv,,,,,MIC,,0.024 µg/mL
CCc1nc2ccc(C)cc2n1CCCCSc1ccc(Cl)cc1,H37Rv,Rv1339 V90M,,turbidity / fluorescence,,fold resistance,,0.8
CCCCCCCCCN1C(=O)CC(SCCNC(=O)c2ccc(C(C)(C)C)cc2)C1=O,H37Rv,,,,,MIC,,≤20 µg/mL
CO[C@H]1/C=C/O[C@@]2(C)Oc3c(C)c(O)c4c(=O)c(c5oc6cc(N7CCN(CC(C)C)CC7)cc(=O)c6nc5c4c3=C2O)NC(=O)/C(C)=C\C=C\[C@H](C)[C@H](O)[C@@H](C)[C@@H](O)[C@@H](C)[C@H](OC(C)=O)[C@@H]1C,35 (rifampin-resistant),,,,,MBC,,0.1 µg/mL
C=C1C[C@]23C(=O)C[C@@H]4[C@H](CCCC4(C)C)[C@H]2CC[C@H]1[C@@H]3O,H37Rv,,,resazurin / absorbance,,MIC,,>50 µg/mL
CCCCCCCCCN1C(=O)CC(C)(SCC(N)C(=O)O)C1=O,H37Ra,,,,,MIC,,≤20 µg/mL
C[C@]1(COc2cccc(-c3ncc(-c4ccc(Cl)cc4)o3)c2)Cn2cc([N+](=O)[O-])nc2O1,H37Rv,,,,,MIC,,0.78 µg/mL
CCCCCc1cc(OC)c2ccccc2n1,MT5,,,,,MIC,,21 µg/mL
C=C1C(=O)[C@]23C[C@H]1C[C@H](OC(C)=O)[C@H]2[C@]1(C)CCCC(C)(C)[C@H]1C[C@H]3O,H37Ra,,,resazurin / absorbance,,MIC,,6.25–12.5 µg/mL
CO[C@H]1/C=C/O[C@@]2(C)Oc3c(C)c(O)c4c(O)c(c5c(c4c3C2=O)NC2(CCN(CC(C)C)CC2)N=5)=NC(=O)/C(C)=C\C=C\[C@H](C)[C@H](O)[C@@H](C)[C@@H](O)[C@@H](C)[C@H](OC(C)=O)[C@@H]1C,9 (rifampin-resistant),,,,,MIC,,0.05 µg/mL
C[C@]1(COc2ccc(-c3ccc(N4CCCN(c5ccc(OC(F)(F)F)cc5)CC4)cc3)cc2)Cn2cc([N+](=O)[O-])nc2O1,H37Rv,,,,,MIC,,0.024 µg/mL
COC1CCCC2OC3(OC)C(OC)CCCC3OC12OC,H37Rv,,,BACTEC,,inhibition,12.5 µg/mL,7%
CCc1nc2ccc(C)cc2n1CCCCSc1ccc(OC)cc1,H37Rv,QcrB M342T,,turbidity / fluorescence,,MIC90,,98 µM
CC1CN(CCO)C(C)CN1CCO,H37Rv,,,BACTEC,,MIC bound,,>12.8 µg/mL
CCCCCCCCN1C(=O)CC(SCC(N)C(=O)O)C1=O,Clinical isolate (isoniazid-resistant),,,,,MIC,,≤20 µg/mL
CCn1c2cc(C)c(C)cc2nc2cc3c(cc21)c(Cl)c(=O)c1ccccc13,H37Rv,,,BACTEC,,inhibition,12.5 µg/mL,98%
Clc1ccc(-n2ncc(C(c3ccccc3)n3ccnc3)c2-c2ccccc2Cl)c(Cl)c1,ATCC 35820 (streptomycin-resistant),,,,,MIC50,,22.4 µM
COC(OC)c1c2c(O)c3c(O)c(C)c4c(c3c1O)C(=O)[C@@](C)(O/C=C/[C@H](OC)[C@@H](C)[C@@H](OC(C)=O)[C@H](C)[C@H](O)[C@H](C)[C@@H](O)[C@@H](C)/C=C/C=C(/C)C(=O)N2)O4,H37Rv,,,,,MIC,,5 µg/mL
N/C(COc1ccc(Cl)cc1)=N/NC(=O)c1ccncc1,ATCC 35820 (streptomycin-resistant),,,,,MIC,,6.25 µg/mL
Cc1ccn2c(N=O)c(-c3ccccc3)nc2c1,H37Rv,,,BACTEC,,MIC,,0.39 µg/mL
CN(c1ccc(OC(F)(F)F)cc1)C1CCN(c2ccc(OC[C@@]3(C)Cn4cc([N+](=O)[O-])nc4O3)cc2)CC1,H37Rv,,,,,MIC,,0.012 µg/mL
CN1CN(C)N(C(=O)c2ccccc2)CN1C(=O)c1ccccc1,H37Rv,,,BACTEC,,inhibition,12.5 µg/mL,11%
CCc1nc2ccccc2n1CCCCSc1ccc2ccccc2n1,H37Rv,,,turbidity / fluorescence,,MIC99,,18 µM
Fc1ccccc1-c1c(C(c2ccccc2)n2ccnc2)cnn1-c1ccccc1,ATCC 35822 (isoniazid-resistant),,,,,MIC90,,≥100 µM
COC(=O)C(=O)c1c(C(=O)OC)nc2nnc(N)n2c1-c1ccc(O)c(OC)c1,H37Rv,,,resazurin,,inhibition,6.25 µg/mL,1%
CO[C@H]1/C=C/O[C@@]2(C)Oc3c(C)c(O)c4c(O)c(c5c(c4c3C2=O)NC2(CCN(CC(C)C)CC2)N=5)=NC(=O)/C(C)=C\C=C\[C@H](C)[C@H](O)[C@@H](C)[C@@H](O)[C@@H](C)[C@H](OC(C)=O)[C@@H]1C,15 (rifampicin-susceptible),,,,,MIC,,≤0.062 µg/mL
C=C1CC(=O)N(CCCCCCCC)C1=O,H37Rv,,,,,MIC,,≤20 µg/mL
NNC(=O)c1ccncc1,ATCC 35822 (isoniazid-resistant),,,,,MIC50,,≥100 µM
NC(=O)c1cnccn1,TB189,,,,7 d,EC50,,<800 µg/mL
CO[C@H]1/C=C/O[C@@]2(C)Oc3c(C)c(O)c4c(O)c(c(/C=N/O)c(O)c4c3C2=O)NC(=O)/C(C)=C\C=C\[C@H](C)[C@H](O)[C@@H](C)[C@@H](O)[C@@H](C)[C@H](OC(C)=O)[C@@H]1C,H37Rv,,,,,MIC,,5 µg/mL
C[C@@H]1Cn2cc(C(=O)O)c(=O)c3cc(F)c(N4CCN(/C(N)=N/C(N)=NCCCCCCN=C(N)/N=C(\N)N5CCN(c6c(F)cc7c(=O)c(C(=O)O)cn8c7c6O[C@@H](C)C8)CC5)CC4)c(c32)O1,H27Rv,,,broth dilution,,MIC,,1.25 µg/mL
Fc1ccc(-c2c(C(c3ccccc3)n3ccnc3)cnn2-c2ccc(F)cc2)cc1,ATCC 35828 (pyrazinamide-resistant),,,,,MIC50,,≥100 µM
CC1(C)S[C@@H]2[C@H](NC(=O)[C@H](N)c3ccccc3)C(=O)N2[C@H]1C(=O)O,DLV,,,,,MIC,,>92 µM
CCc1nc2ccccc2n1CCCCOc1ccc(Cl)cc1C,H37Rv,Rv1339 V90M,,turbidity / fluorescence,,MIC90,,7.8 µM
Cc1ccc(C)c(N=Nc2c(N)nc(N)[nH]c2=O)c1,H37Rv,,,BACTEC,,inhibition,12.5 µg/mL,-11%
Fc1ccc(-n2ncc(C(c3ccccc3)n3ccnc3)c2-c2ccccc2)cc1,ATCC 35820 (streptomycin-resistant),,,,,MIC90,,≥100 µM
COc1c(N2CC[C@@H](C(C)(C)N)C2)c(F)cc2c(=O)c3c(=O)[nH]sc3n(C3CC3)c12,Pan-susceptible clinical isolate 4,,,,,MIC,,0.06 µg/mL
O=c1cc(-c2ccccc2)oc2c(O)c(O)cc(O)c12,H37Rv,,,BACTEC,,MIC bound,,>12.5 µg/mL
CC1COc2c(N3CCN(C)CC3)c(F)cc3c(=O)c(C(=O)O)cn1c23,07-9206,,,BACTEC,,MIC,,0.5 µg/mL
NNC(=O)c1ccncc1,XDR-164,,,resazurin,,MIC,,4 µg/mL
Cn1c(=O)ccc2c(=O)c3c(ccc4ccccc43)oc21,H37Rv,,,BACTEC,,MIC bound,,>12.5 µg/mL
CC(=O)OC[C@@]1(C)CCC[C@]2(C)[C@@H]1C[C@@H](O)[C@@]13C[C@@H](CC[C@@H]21)[C@@H](C)C3=O,H37Ra,,,resazurin / absorbance,,MIC,,1.56–3.125 µg/mL
CO[C@H]1/C=C/O[C@@]2(C)Oc3c(C)c(O)c4c(O)c(c(/C=N/[n+]5ccccc5)c(O)c4c3C2=O)NC(=O)/C(C)=C\C=C\[C@H](C)[C@H](O)[C@@H](C)[C@@H](O)[C@@H](C)[C@H](OC(C)=O)[C@@H]1C,H37Rv,,,,,MIC,,5 µg/mL
CSc1ncc(SC)c(Nc2ccc(C)c(Cl)c2)n1,H37Rv,,,resazurin,,MIC,,12.5 µg/mL
CCCCCCCCCN1C(=O)CC(SCCNC(=O)C2CCCCC2)C1=O,H37Ra,,,,,MIC,,≤20 µg/mL
CCc1nc2ccccc2n1CCCCOc1ccc(C)c(Cl)c1,H37Rv,QcrB M342T,,turbidity / fluorescence,,MIC90,,31 µM
C[N+](C)=c1ccc2nc3ccc(N)cc3sc-2c1.[Cl-],H37Rv,,,BACTEC,,inhibition,12.5 µg/mL,64%
COc1ccc(CCC2CCc3ccccc3N2C)cc1OC,MT6,,,,,MIC,,>322 µg/mL
O=C1C(=O)c2ccccc2C(O)=C1C(C1=C(O)c2ccccc2C(=O)C1=O)c1ccc(Cl)cc1,H37Rv,,,BACTEC,,inhibition,12.8 µg/mL,66%
Fc1ccc(-n2ncc(C(c3ccccc3)n3ccnc3)c2-c2ccccc2)c(F)c1,ATCC 35828 (pyrazinamide-resistant),,,,,MIC50,,≥100 µM
Cn1ncc2c(N(N)CCO)nc(-c3ccc([N+](=O)[O-])o3)nc21,H37Rv,,VERO,,,MIC,,3.1 µg/mL
CC1=CC(=O)N(CC2CCC3CC2C3(C)C)C1=O,Clinical isolate (isoniazid-resistant),,,,,MIC,,≤20 µg/mL
Cc1ccc(S(=O)(=O)OCC2CCC(COS(=O)(=O)c3ccc(C)cc3)O2)cc1,H37Rv,,,BACTEC,,inhibition,12.5 µg/mL,-11%
C=C1C(=O)[C@@]23[C@H](O)C[C@@H]4C(C)(C)CC[C@@H](OC(C)=O)[C@@]4(C)[C@@H]2CC[C@@H]1[C@H]3OC(C)=O,H37Ra,,,resazurin / absorbance,,MIC,,3.125–6.25 µg/mL
CCCCCCCCCN1C(=O)CC(SCCNC(=O)c2ccc(C)cc2)C1=O,H37Ra,,,,,MIC,,≤20 µg/mL
CO[C@H]1/C=C/O[C@@]2(C)Oc3c(C)c(O)c4c(O)c(cc(O)c4c3C2=O)NC(=O)/C(C)=C\C=C\[C@H](C)[C@H](O)[C@@H](C)[C@@H](O)[C@@H](C)[C@H](OC(C)=O)[C@@H]1C,H37Rv,,,,,MIC,,0.05 µg/mL
O=Nc1c(-c2cccc([N+](=O)[O-])c2)nc2ncccn12,H37Rv,,,resazurin,,MIC bound,,<6.25 µg/mL
Fc1ccc(-c2c(C(c3ccccc3)n3ccnc3)cnn2-c2ccccc2)cc1,ATCC 35828 (pyrazinamide-resistant),,,,,MIC90,,≥100 µM
S=C(SCc1ccc(Cl)cc1)N1CCN(C(=S)SCc2ccc(Cl)cc2)CC1,H37Rv,,,BACTEC,,inhibition,128 µg/mL,73%
Clc1ccc(-n2ncc(C(c3ccccc3)n3ccnc3)c2-c2ccccc2)c(Cl)c1,ATCC 35822 (isoniazid-resistant),,,,,MIC50,,61.2 µM
O=c1[nH][nH]c(=O)c2nc3c(nc12)c1nc2c(=O)[nH][nH]c(=O)c2nc1c1nc2c(=O)[nH][nH]c(=O)c2nc31,H37Rv,,,BACTEC,,inhibition,12.5 µg/mL,12%
Clc1ccc(-c2c(C(c3ccccc3)n3ccnc3)cnn2-c2ccc(Cl)cc2Cl)cc1,ATCC 35822 (isoniazid-resistant),,,,,MIC50,,91.7 µM
CCCCCCCCCN1C(=O)CC(Nc2ccc(N3CCCCC3)cc2)C1=O,H37Ra,,,,,MIC,,≤20 µg/mL
CCc1nc2ccccc2n1CCCCOc1cccc(C)c1,H37Rv,QcrB M342T,,turbidity / fluorescence,,fold resistance,,17
CCOCCOCCN1CNc2nc(N)[nH]c(=O)c2C1,H37Rv,,,BACTEC,,MIC bound,,>12.5 µg/mL
CO[C@H]1/C=C/O[C@@]2(C)Oc3c(C)c(O)c4c(O)c(c(C=Nc5cccc(C)c5)c(O)c4c3C2=O)NC(=O)/C(C)=C\C=C\[C@H](C)[C@H](O)[C@@H](C)[C@@H](O)[C@@H](C)[C@H](OC(C)=O)[C@@H]1C,H37Rv,,,,,MIC,,5 µg/mL
Cc1cccc(OC/C(N)=N\NC(=O)c2ccncc2)c1,ATCC 35820 (streptomycin-resistant),,,,,MIC,,6.25 µg/mL
C[C@@H]1CC(C(O)CC2CC(=O)N(Cc3ccccc3)C(=O)C2)[C@@H](O)[C@@H](C)C1,H37Rv,,,resazurin,,MIC bound,,>6.25 µg/mL
O=C(O)C(=O)O.OC(CNCCc1ccccc1)CN1c2ccccc2Sc2ccccc21,H37Rv,,,resazurin,,MIC,,1.25 µg/mL

The first 7 rows once more:

compound,strain or isolate,mutations,cell line,method,setting,measure,dose,value
N/C(COc1cccc(Cl)c1)=N/NC(=O)c1ccncc1,16 isolates,,,,,MIC50,,6.25 µg/mL
CCCCCCCCN1C(=O)C=C(C)C1=O,H37Ra,,,,,MIC,,≤20 µg/mL
C=C1C(=O)[C@@]23[C@H](O)C[C@@H]4C(C)(C)CCC[C@@]4(C)[C@@H]2CC[C@@H]1[C@H]3O,H37Ra,,,resazurin / absorbance,,MIC,,3.125–6.25 µg/mL
O=C(Nc1ccccc1[N+](=O)[O-])/C(=N\Nc1cccc(Cl)c1)c1c(O)c2ccccc2oc1=O,H37Rv,,,BACTEC,,MIC bound,,>12.5 µg/mL
C[C@]1(COc2ccc(N3CCC(COc4ccc5ccccc5c4)CC3)cc2)Cn2cc([N+](=O)[O-])nc2O1,H37Rv,,,,,MIC,,0.024 µg/mL
CCc1nc2ccc(C)cc2n1CCCCSc1ccc(Cl)cc1,H37Rv,Rv1339 V90M,,turbidity / fluorescence,,fold resistance,,0.8
CCCCCCCCCN1C(=O)CC(SCCNC(=O)c2ccc(C(C)(C)C)cc2)C1=O,H37Rv,,,,,MIC,,≤20 µg/mL

ECn is the concentration giving n% inhibition of infection, replication or growth. Lines come from different laboratories, so protocols vary. Fold resistance: result on the changed form divided by that on wild type. An empty or dashed field is not shown. MIC50, MIC90 and the like: level of inhibition, or share of isolates inhibited. Two numbers with a dash give a range or band. Inhibition is in % at the dose shown (toxicity tests: loss of growth or viability).